Experimental data taken from patent US9198965B2 (priority 2008, dated 2015).

System: PR/8 virus
Test: Sedimentation density profiles (density gradient ultracentrifugation) of peptide-treated virus
Set-up: species or system A/PuertoRico/8/34 (PR/8, H1N1)
Conditions: PR/8 pretreated with 30 μM EB

With RRKKAAVALLPAVLLALLAP [EB] the “location of the HA antigen (sucrose fractions)” value (1 hour at 37° C.) was 41-53 % sucrose and the “density at which majority of virus antigen detected” value (virus alone 1.14 g/cm^3) was 1.20 g/mL.
